What was measured:
[1] = system: HIV-1 replication; experiment: HIV-1 replication in HeLa-CD4-LTR-β-gal reporter cells; format: cell-based; settings: supplement CSV; ratio CC50 / EC50
Method: HIV-1 replication was monitored using HeLa-CD4-LTR-β-gal reporter cells as previously described.[69] Briefly, β-galactosidase activity was monitored 24 h post infection using a replication-competent HIV produced in-house (H9-laï coculture) and a serial dilution of molecules or an equivalent volume of DMSO. In parallel, compounds’ toxicity was determined at 24 h in the same cell line using CellTiter 96 AQueous One Solution Cell Proliferation Assay (Promega, France).

[2] = system: Y501A HIV-1 RT RNase H; experiment: RNase H assay, point-mutant Y501A RT; format: biochemical
Method: (§1) An activity curve was performed for all of the enzymes (Figure S1), and a concentration was chosen in the linear dose-response range to perform the enzymatic-inhibition assays.
(§2) Amino acid substitutions were introduced into the p66 HIV-1 RT subunit of a HIV-1 RT using a QuikChange mutagenesis kit, following the manufacturer’s instructions (Agilent Technologies Inc., Santa Clara, CA).
(§3) The HIV-1 RT-associated RNase H activity was measured as described.[68] Briefly, the reaction was carried out in a black 96-well plate in a total volume of 100 μL. […] Experiments were performed in duplicate and replicated at least two times. Data were analyzed as described.[36]

[3] = system: Q475A HIV-1 RT RNase H; experiment: RNase H assay, point-mutant Q475A RT; format: biochemical
Method: as §1, §2, §3

Row | Compound | SI [1] | further results
1 | O=C(/C=C/c1ccc2c(c1)c(=O)c(C(=O)O)cn2Cc1ccc(F)cc1)c1ccccc1 [4k, (E)-1-(4-Fluorobenzyl)-4-oxo-6-(3-oxo-3-phenylprop-1-en-1-yl)-1,4-dihydroquinoline-3 carboxylic Acid] | 3.1 | –
2 | O=C(O)c1cn(Cc2ccc(F)cc2)c2ccc(OCc3ccccc3)cc2c1=O [4l, 6-(Benzyloxy)-1-(4-fluorobenzyl)-4-oxo-1,4-dihydroquinoline-3-carboxylic Acid] | >8.6 | –
3 | O=C(O)c1cn(Cc2ccc(F)cc2)c2ccc(OCc3cccc(Cl)c3Cl)cc2c1=O [4m, 6-((2,3-Dichlorobenzyl)oxy)-1-(4-fluorobenzyl)-4-oxo-1,4-dihydroquinoline-3-carboxylic Acid] | >15 | –
4 | O=C(O)c1cn(Cc2ccc(F)cc2)c2ccc(OCc3ccc(Cl)c(Cl)c3)cc2c1=O [4n, 6-((3,4-Dichlorobenzyl)oxy)-1-(4-fluorobenzyl)-4-oxo-1,4-dihydroquinoline-3-carboxylic Acid] | >12.4 | –
5 | O=C(O)c1cn(Cc2ccc(F)cc2)c2ccc(OCc3ccc4c(c3)OCO4)cc2c1=O [4q, 6-(Benzo[d][1,3]dioxol-5-ylmethoxy)-1-(4-fluorobenzyl)-4-oxo-1,4-dihydroquinoline-3-carboxylic Acid] | >17.7 | –
6 | O=C(O)c1cn(Cc2ccc(F)cc2)c2ccc(OCc3ccc(-c4ccccc4)cc3)cc2c1=O [4s, 6-([1,1′-Biphenyl]-4-ylmethoxy)-1-(4-fluorobenzyl)-4-oxo-1,4-dihydroquinoline-3-carboxylic Acid] | >40 | –
7 | O=C(O)c1cn(Cc2ccc(F)cc2)c2ccc(OCc3ccc(OCc4ccccc4)cc3)cc2c1=O [4t, 6-((4-(Benzyloxy)benzyl)oxy)-1-(4-fluorobenzyl)-4-oxo-1,4-dihydroquinoline-3-carboxylic Acid] | >57.8 | Fold increase in IC50 compared to wt RT, Y501A [2]: > 52.4 fold; Y501A (Fold) ([2]; supplement CSV, vs wt): >52.4; Fold increase in IC50 compared to wt RT, Q475A [3]: 8.2 fold; Q475A (Fold) ([3]; supplement CSV, vs wt): 8.2
8 | CCOC(=O)c1cn(Cc2ccc(F)cc2)c2ccc(OCc3cccc(Cl)c3Cl)cc2c1=O [5m, Ethyl 6-((2,3-Dichlorobenzyl)oxy)-1-(4-fluorobenzyl)-4-oxo-1,4-dihydroquinoline-3-carboxylate] | 1.2 | –
9 | CCOC(=O)c1cn(Cc2ccc(F)cc2)c2ccc(OCc3ccc(Cl)c(Cl)c3)cc2c1=O [5n, Ethyl 6-((3,4-Dichlorobenzyl)oxy)-1-(4-fluorobenzyl)-4-oxo-1,4-dihydroquinoline-3-carboxylate] | 1.4 | –
10 | CCOC(=O)/C=C/C(=O)/C=C/c1cccn1Cc1ccccc1Cl [compound 11, reference compound] | > 13.7 | –

— publication PMC8279492, “Quinolinonyl Non-Diketo Acid Derivatives as Inhibitors of HIV-1 Ribonuclease H and Polymerase Functions of Reverse Transcriptase” (Journal of Medicinal Chemistry, 2021)
